The data set deals with the molecule itself. Nature of the data set: cryo-EM structure.

B1: EA1 full-length (EA1^FL) (natural protein)
chain: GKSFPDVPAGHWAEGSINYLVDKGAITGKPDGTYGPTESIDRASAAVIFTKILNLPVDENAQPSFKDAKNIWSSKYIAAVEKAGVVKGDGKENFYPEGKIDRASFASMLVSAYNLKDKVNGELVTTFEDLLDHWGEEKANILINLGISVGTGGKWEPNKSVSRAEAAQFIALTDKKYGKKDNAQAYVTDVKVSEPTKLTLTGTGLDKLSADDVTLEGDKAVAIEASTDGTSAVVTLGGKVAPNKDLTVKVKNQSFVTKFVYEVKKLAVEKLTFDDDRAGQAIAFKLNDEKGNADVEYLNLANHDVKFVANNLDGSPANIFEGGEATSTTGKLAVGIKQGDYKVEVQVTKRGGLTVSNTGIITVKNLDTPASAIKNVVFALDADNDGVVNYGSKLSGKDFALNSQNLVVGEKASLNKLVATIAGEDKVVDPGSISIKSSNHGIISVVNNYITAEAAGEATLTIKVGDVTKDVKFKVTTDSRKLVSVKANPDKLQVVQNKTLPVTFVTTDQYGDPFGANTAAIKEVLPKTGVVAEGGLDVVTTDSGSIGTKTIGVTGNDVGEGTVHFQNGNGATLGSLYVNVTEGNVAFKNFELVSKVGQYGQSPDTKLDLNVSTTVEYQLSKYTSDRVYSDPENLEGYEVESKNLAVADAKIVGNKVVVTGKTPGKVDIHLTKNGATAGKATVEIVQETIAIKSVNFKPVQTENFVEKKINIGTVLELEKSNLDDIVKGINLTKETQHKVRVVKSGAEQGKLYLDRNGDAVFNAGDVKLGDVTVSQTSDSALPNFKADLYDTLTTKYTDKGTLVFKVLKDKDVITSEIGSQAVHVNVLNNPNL
notes: source: E. coli BL21 (DE3), purified (pellet solubilised in 8 M urea, Ni IMAC, SEC)
With B1, the binding result was “binds”.

The values are drawn from PMC10624894 (Nature Communications, 2023).
